Pooled drug test results. Numbers come from NIAID ChemDB, via PubChem.

All rows: tests in culture; species: HIV-1; method: cytopathic effect / MTT; endpoint: EC50

An empty or dashed field is not shown. Neighbouring rows are from separate reports. ECn is the concentration giving n% inhibition of infection, replication or growth.

smiles,strain,mutations,cell line,result
C=CCOc1cccc(Cc2c(CC)c(=O)[nH]c(=O)n2COCC)c1,RT-Y181C Mutant NNRTI-resistant,-,MT-4,7 µM
Cc1nc(N)nc(C)c1OCC(=O)N[C@@H](Cc1ccccc1)[C@H](O)CN(CC(C)C)S(=O)(=O)c1ccc2nc(N)oc2c1,LAI WT,-,MT-4,0.0389 µM
COc1c(Cl)cc(C(=CCNC(=O)C[C@H]2CC[C@]3(C)C4CC[C@@]5(C)C(CC[C@@H]5CC(=O)NCC=C(c5cc(Cl)c(OC)c(C(=O)O)c5)c5cc(Cl)c(OC)c(C(=O)O)c5)C4CC[C@H]3C2)c2cc(Cl)c(OC)c(C(=O)O)c2)cc1C(=O)O,RF,-,MT-4,35 µM
O=C1O[C@H]2[C@H]3OC(=O)c4cc(O)c(O)c(O)c4-c4c(cc(Oc5c(C(=O)O[C@@H]6O[C@@H]7COC(=O)c8cc(O)c(O)c(O)c8-c8c(cc(O)c(O)c8O)C(=O)O[C@H]7[C@H](OC(=O)c7cc(O)c(O)c(O)c7)[C@H]6OC(=O)c6cc(O)c(O)c(O)c6)cc(O)c(O)c5O)c(O)c4O)C(=O)OC[C@H]2O[C@H](OC(=O)c2cc(O)c(O)c(O)c2)[C@H]3OC(=O)c2cc(O)c(O)c3c2C2C1=CC(=O)C(O)(O)C2(O)O3,IIIB,-,MT-4,>50 µg/mL
COc1c(Cl)cc(C(=CCCCCN[C@H]2CC[C@]3(C)C4CC[C@@]5(C)C(CC[C@@H]5C(C)CCCC(C)C)C4CC[C@H]3C2)c2cc(Cl)c(OC)c(C(=O)O)c2)cc1C(=O)O,IIIB,-,MT-4,>150 µM
Cc1cn([C@H]2C=C[C@@H](CO)O2)c(=O)[nH]c1=O,RD 02-RT-210W 215C Recombinant,-,MT-4,0.33 µM
O=CC(OC(=O)c1cc(O)c(O)c(O)c1Oc1cc2c(c(O)c1O)-c1c(cc(O)c(O)c1O)C(=O)COC1OC(OC(=O)c3cc(O)c(O)c(O)c3Oc3cc4c(=O)oc5c(O)c(O)cc6c(=O)oc(c3O)c4c56)C(OC(=O)c3cc(O)c(O)c(O)c3)C(OC(=O)c3cc(O)c(O)c(O)c3)C1OC2=O)C(OC(=O)c1cc(O)c(O)c(O)c1)C(O)C(O)CO,IIIB,-,MT-4,11.8 µg/mL
C[C@]12CCC3C(CC[C@H]4C[C@@H](CC=C(c5cc(Cl)c(O)c(C(=O)O)c5)c5cc(Cl)c(O)c(C(=O)O)c5)CC[C@]34C)C1CC[C@@H]2CC=C(c1cc(Cl)c(O)c(C(=O)O)c1)c1cc(Cl)c(O)c(C(=O)O)c1,RF,-,MT-4,12 µM
O=C1C=C2C(=O)O[C@H]3[C@@H]4OC(=O)c5cc(O)c(O)c(O)c5-c5c(cc(Oc6c(C(=O)O[C@H]7[C@H](OC(=O)c8cc(O)c(O)c(O)c8)O[C@H](COC(=O)c8cc(O)c(O)c(O)c8)[C@@H](OC(=O)c8cc(O)c(O)c(O)c8)[C@@H]7OC(=O)c7cc(O)c(O)c(O)c7)cc(O)c(O)c6O)c(O)c5O)C(=O)OC[C@H]3O[C@@H](OC(=O)c3cc(O)c(O)c(O)c3)[C@@H]4OC(=O)c3cc(O)c(O)c4c3[C@H]2[C@@](O)(O4)C1=O,IIIB,-,MT-4,>50 µg/mL
COC(=O)c1[nH]c(=S)n(Nc2cccc(Cl)c2)c1C,IIIB,-,MT-4,>48.8 µM
C=CCCc1cccc(Cc2[nH]c(=S)[nH]c(=O)c2CC)c1,RT-Y181C Mutant NNRTI-resistant,-,MT-4,>80 µM
COC(=O)c1c(C)[nH]c(=S)n1Nc1cccc(Cl)c1,IIIB,-,MT-4,>190 µM
C=CCOc1cccc(Cc2[nH]c(=S)[nH]c(=O)c2CC)c1,IIIB,-,MT-4,>20 µM
C[C@]12CCC3C(CC[C@H]4C[C@@H](CCC=C(c5cc(Cl)c(O)c(C(=O)O)c5)c5cc(Cl)c(O)c(C(=O)O)c5)CC[C@]34C)C1CC[C@@H]2CCC=C(c1cc(Cl)c(O)c(C(=O)O)c1)c1cc(Cl)c(O)c(C(=O)O)c1,IIIB,-,CEM + CEM-SS,20 µM
C=CCCc1cccc(Cc2c(CC)c(=O)n(COCC)c(=O)n2COCC)c1,RT-Y181C Mutant NNRTI-resistant,-,MT-4,>45 µM
O=CC(OC(=O)c1cc(O)c(O)c(O)c1Oc1cc2c(=O)oc3c(O)c(O)cc4c(=O)oc(c1O)c2c34)C(OC(=O)c1cc(O)c(O)c(O)c1)C1C(=O)Oc2cc(Oc3c(C(=O)O)cc(O)c(O)c3O)c(O)c(O)c2-c2c(cc(O)c(O)c2O)C(=O)OCC1O,IIIB,-,MT-4,>50 µg/mL
Clc1cccc(Nn2cnc3c2CCCC3)c1,IIIB,-,MT-4,>67.29 µM
Cc1c(C(=O)N[C@@H](Cc2ccccc2)[C@H](O)CN(CC(C)C)S(=O)(=O)c2ccc3nc(N)oc3c2)ccc2ncoc12,LAI WT,-,MT-4,0.0078 µM
Cc1ncn(Nc2cccc(Cl)c2)c1C,IIIB,-,MT-4,>214 µM
Cc1cc(N)c(N)c(C)c1OCC(=O)N[C@@H](Cc1ccccc1)[C@H](O)CN(CC(C)C)S(=O)(=O)c1ccc2nc(N)oc2c1,LAI WT,-,MT-4,0.0955 µM
Cc1cccc(Nn2cnc(C)c2-c2cccc(C#N)c2)c1,IIIB,-,MT-4,>44.7 µM
C=CCOc1cccc(Cc2[nH]c(=O)[nH]c(=O)c2CC)c1,IIIB,-,MT-4,>20 µM
O=C1O[C@H]2[C@@H]3OC(=O)c4cc(O)c(O)c5c4[C@@H]4C(=CC(=O)[C@](O)(O5)C4(O)O)C(=O)OC[C@H]2O[C@@H](OC(=O)c2cc(O)c(O)c(O)c2)C3OC(=O)c2cc(O)c(O)c3c2[C@@H]2C1=CC(=O)[C@](O)(O3)C2(O)O,IIIB,-,MT-4,>100 µg/mL
Cc1c(C(=O)N[C@@H](Cc2ccccc2)[C@H](O)CN(CC(C)C)S(=O)(=O)c2ccc3nc(N)oc3c2)ccc([N+](=O)[O-])c1O,LAI WT,-,MT-4,0.0324 µM
COc1cccc(Nn2c(-c3ccccc3)c(C)[nH]c2=S)c1,SO561945 (RT K103N Y181C),RT-K103N Y181C,MT-4,>38.02 µM
O=C(O[C@@H]1[C@H](c2c(O)cc(O)c3c2O[C@H](c2ccc(O)c(O)c2)[C@H](OC(=O)c2cc(O)c(O)c(O)c2)C3)c2c(O)cc(O)c([C@H]3c4c(O)cc(O)c([C@@H]5c6c(O)cc(O)cc6O[C@H](c6ccc(O)c(O)c6)[C@@H]5OC(=O)c5cc(O)c(O)c(O)c5)c4O[C@H](c4ccc(O)c(O)c4)[C@@H]3OC(=O)c3cc(O)c(O)c(O)c3)c2O[C@@H]1c1ccc(O)c(O)c1)c1cc(O)c(O)c(O)c1,IIIB,-,MT-4,22.5 µg/mL
CCOCn1c(Cc2cccc(OCC=NO)c2)c(CC)c(=O)[nH]c1=O,IIIB,-,MT-4,0.3 µM
CC(C)CN(C[C@@H](O)[C@H](Cc1ccccc1)NC(=O)OC1COC2OCCC12)S(=O)(=O)c1ccc2nc(N)oc2c1,LAI WT,-,MT-4,0.0331 µM

Repeating the first 4 entries:

smiles	strain	mutations	cell line	result
C=CCOc1cccc(Cc2c(CC)c(=O)[nH]c(=O)n2COCC)c1	RT-Y181C Mutant NNRTI-resistant	-	MT-4	7 µM
Cc1nc(N)nc(C)c1OCC(=O)N[C@@H](Cc1ccccc1)[C@H](O)CN(CC(C)C)S(=O)(=O)c1ccc2nc(N)oc2c1	LAI WT	-	MT-4	0.0389 µM
COc1c(Cl)cc(C(=CCNC(=O)C[C@H]2CC[C@]3(C)C4CC[C@@]5(C)C(CC[C@@H]5CC(=O)NCC=C(c5cc(Cl)c(OC)c(C(=O)O)c5)c5cc(Cl)c(OC)c(C(=O)O)c5)C4CC[C@H]3C2)c2cc(Cl)c(OC)c(C(=O)O)c2)cc1C(=O)O	RF	-	MT-4	35 µM
O=C1O[C@H]2[C@H]3OC(=O)c4cc(O)c(O)c(O)c4-c4c(cc(Oc5c(C(=O)O[C@@H]6O[C@@H]7COC(=O)c8cc(O)c(O)c(O)c8-c8c(cc(O)c(O)c8O)C(=O)O[C@H]7[C@H](OC(=O)c7cc(O)c(O)c(O)c7)[C@H]6OC(=O)c6cc(O)c(O)c(O)c6)cc(O)c(O)c5O)c(O)c4O)C(=O)OC[C@H]2O[C@H](OC(=O)c2cc(O)c(O)c(O)c2)[C@H]3OC(=O)c2cc(O)c(O)c3c2C2C1=CC(=O)C(O)(O)C2(O)O3	IIIB	-	MT-4	>50 µg/mL